Anti-infective test results gathered from many reports (values: NIAID ChemDB through PubChem).

All rows: toxicity to cultured cells; cell line: MT-4; read-out: CC50

An empty or dashed field is not shown.

smiles	method	result
O=c1[nH]cnc2c1ncn2C1CC[C@@H](CO)O1	MTT	≥529 µM
Cc1ccnc2c1NC(=O)c1cccnc1N2C1CC1		>80 µM
CC(C)=CCN1Cc2cc(Cl)cc3[nH]c(=S)n(c23)C[C@H]1C		5.5 µg/mL
O=c1ccn([C@H]2C[C@H](F)[C@@H](CO)O2)c(=O)[nH]1		75 µM
Cc1cn([C@H]2C[C@H](N=[N+]=[N-])[C@@H](COP(=O)(OCCSC(=O)C(C)(C)C)Oc3ccc(C[C@@H](N)C(=O)O)cc3)O2)c(=O)[nH]c1=O		>100 µM
CCCCCCCCCCCCCC(=O)O[C@@H]1[C@@H](C)[C@@]2(O)[C@@H](C=C(CO)C[C@]3(O)C(=O)C(C)=C[C@@H]23)[C@@H]2C(C)(C)[C@]12OC(C)=O		>31.3 µg/mL
C[C@H]1[C@@H]2O[C@]3(NC(=O)OC(C)(C)C)[C@@H](C)[C@H]1O[C@H]2[C@@H]3O	MTT	>88 µM
CC(C)=CC1Oc2cc(O)ccc2-c2oc3c4c(cc(O)c3c(=O)c21)OC(C)(C)C=C4		21 µg/mL
Cc1cc(C)cc(S(=O)(=O)c2c(C(=O)NCN3CCOCC3)[nH]c3ccc(Cl)cc23)c1		>1 µM
C/C=C(\C)C(=O)O[C@@]12[C@H](O)[C@@H](C)[C@@]3(O)[C@@H](C=C(COC(=O)CCCCCCC/C=C\C/C=C\CCCCC)C[C@]4(O)C(=O)C(C)=C[C@@H]34)[C@@H]1C2(C)C		>62.5 µg/mL
Cc1c(C(C)CC2CCCCC2)nc(SCC(=O)c2ccc(O)cc2)[nH]c1=O	MTT	24 µM
CC(C)=CCN1CCn2c(=S)[nH]c3ccc(Cl)c(c32)C1		177 µg/mL
CCc1c(C(C)CC2CCCCC2)nc(SCC(=O)c2ccc(OC)cc2)[nH]c1=O	MTT	31 µM
OC[C@@H]1SC[C@H](n2cnc3c(Cl)ncnc32)S1		10 µg/mL
O=c1[nH]c(=O)n([C@H]2C[C@H](F)[C@@H](CO)O2)cc1CO		134 µM
CCOCn1c(SC)nc(CC)c1Cc1ccccc1	MTT	34 µM
OC[C@@H]1SC[C@@H](n2cnc3c(Cl)ncnc32)S1		10 µg/mL
COC(=O)[C@@H](Cc1ccc(O)c(O)c1)OC(=O)/C=C/c1ccc(O)c(O)c1/C=C/c1ccc(O)c(O)c1	MTT	6.96 µg/mL
CCCCC/C=C\C/C=C\CCCCCCCC(=O)OCC1=C[C@H]2[C@@H]3C(C)(C)[C@]3(OC(C)=O)[C@H](O)[C@@H](C)[C@]2(O)[C@@H]2C=C(C)C(=O)[C@@]2(O)C1		>62.5 µg/mL
CC(C)=CCN1Cc2cc(Cl)cc3[nH]c(=S)n(c23)C[C@@H]1C	MTT	>31.1 µM
COc1ccc(CCNc2nc(NC(=S)Nc3ccc(C)cc3)nc(Oc3cc(=O)oc4ccccc34)n2)cc1OC	MTT	53.66 µg/mL
Cc1c(C(C)(C)C)s/c(=N\S(=O)(=O)c2cc(Cl)ccc2NS(C)(=O)=O)n1C	MTT	>25 µM
Cc1c(OC(=O)CCCCO[C@H]2O[C@H](CO)[C@@H](O)[C@H](O)[C@@H]2O)cccc1C(=O)N[C@@H](CSc1ccccc1)[C@@H](CN1C[C@H]2CCCC[C@H]2C[C@H]1C(=O)NC(C)(C)C)OC(=O)CCCCO[C@H]1O[C@H](CO)[C@@H](O)[C@H](O)[C@@H]1O	MTT	>50 µM
Cc1cc(C)cc(S(=O)(=O)c2c(C(=O)NCCn3cccc3)[nH]c3ccc(Cl)cc23)c1		>1 µM
CC(=O)O[C@@H]1[C@@H](C)[C@@]2(O)[C@@H](C=C(CO)C[C@]3(O)C(=O)C(C)=C[C@@H]23)[C@@H]2C(C)(C)[C@]12OC(C)=O		>1000 µg/mL
COc1ccc(CCNc2nc(NC(=O)Nc3cccc(C)c3)nc(Oc3cc(=O)oc4ccccc34)n2)cc1OC	MTT	22.45 µg/mL
Cc1ccnc2c1NC(=O)c1cccnc1N2C1CC1	MTT	>2.77 µM
O=c1[nH]cnc2c1ncn2[C@H]1CC[C@@H](CO)O1	MTT	1060 µM
COc1ccc(C(=O)CSc2nc(C(C)C3CCCCC3)c(C)c(=O)[nH]2)cc1	MTT	28 µM
Cc1cn([C@H]2C[C@H](N=[N+]=[N-])[C@@H](CO)O2)c(=O)[nH]c1=O	MTT	>0.64 µg/mL
Cc1cn([C@@H]2O[C@H](CO[Si](C)(C)C(C)(C)C)C3(OS(=O)(=O)C=C3N)[C@H]2O[Si](C)(C)C(C)(C)C)c(=O)n(C)c1=O		14 µM
Cc1c(OC(=O)CCCCO[C@H]2O[C@H](CO)[C@@H](O)[C@H](O)[C@@H]2O)cccc1C(=O)N[C@@H](CSc1ccccc1)[C@H](O)CN1C[C@H]2CCCC[C@H]2C[C@H]1C(=O)NC(C)(C)C	MTT	>50 µM
Cc1cn([C@H]2C[C@H](N=[N+]=[N-])[C@@H](CO)O2)c(=O)[nH]c1=O		>10 µg/mL
CC(C)c1s/c(=N\S(=O)(=O)c2cc(Cl)ccc2C#N)n(C)c1Cl	MTT	3.8 µM
CC(=O)O[C@H]1[C@H](C)[C@@H]2O[C@](NC(=O)OC(C)(C)C)([C@H]1C)[C@H]1O[C@@H]21	MTT	>76 µM
CC(C)=CCc1c(O)cc2c(c1O)C(=O)CC(c1ccccc1)O2		>100 µg/mL
Cc1c(C(C)(C)C)s/c(=N\S(=O)(=O)c2ccc(O)cc2)n1C	MTT	>25 µM
CCCNc1nc(C(C)c2c(F)cccc2F)c(C)c(=O)[nH]1	MTT	70 µM
[N-]=[N+]=N[C@H]1C[C@H](n2cc(CO)c(=O)[nH]c2=O)O[C@@H]1CO		>500 µM
Cc1c(C(C)C)s/c(=N\S(=O)(=O)c2cc(Br)ccc2C#N)n1C	MTT	>25 µM
Cc1cn(CC2(COCP(=O)(OC(C)C)OC(C)C)CC=CC2)c(=O)[nH]c1=O		>100 µg/mL
Nc1ccc(O[C@H]2O[C@H](CO)[C@@H](O)[C@H](O)[C@@H]2O)cc1		>923 µM
Cc1c(C(C)(C)C)s/c(=N\S(=O)(=O)c2cc(Cl)ccc2N)n1C	MTT	>25 µM
O=C(/C=C/c1ccc(O)c2c1[C@H](C(=O)O)[C@H](c1ccc(O)c(O)c1)O2)O[C@H](Cc1ccc(O)c(O)c1)C(=O)O	MTT	86.41 µg/mL
COC(=O)c1ccc(Cl)cc1S(=O)(=O)/N=c1\sc(C(C)(C)C)c(C)n1C	MTT	>25 µM
Cc1cn([C@@H]2O[C@H](CO[Si](C)(C)C(C)(C)C)C3(OS(=O)(=O)C=C3N)[C@H]2O[Si](C)(C)C(C)(C)C(C)C)c(=O)n(C)c1=O		62 µM
Cc1cc(C)cc(S(=O)(=O)c2c(C(=O)NCCN3CCCC3)[nH]c3ccc(Cl)cc23)c1		>1 µM
CC(C)(C)NC(=O)[C@@H]1CN(Cc2cccnc2)CCN1C[C@@H](O)C[C@@H](Cc1ccccc1)C(=O)N[C@H]1c2ccccc2C[C@H]1O	MTT	>1000 µM
CC(C)c1nc(COC(N)=O)n(Cc2ccncc2)c1S(=O)c1cc(Cl)cc(Cl)c1		>0.5 µg/mL
C/C=C(/C)C(=O)O[C@@H]1[C@@H](C)[C@@]2(O)C(C=C(CO)C[C@]3(O)C(=O)C(C)=CC23)C2C(C)(C)[C@@]21OC(=O)C(C)CC		>62.5 µg/mL
CC(C)=CCc1cc(-c2cc(=O)c3c(O)c(CC=C(C)C)c(O)cc3o2)ccc1O		6 µg/mL
Nc1ccn([C@H]2CC[C@@H](CO)O2)c(=O)n1	MTT	47.3 µM
Nc1ccn([C@H]2CC[C@@H](CO)O2)c(=O)n1		61.2 µg/mL
O=c1[nH]cnc2c1ncn2[C@H]1CC[C@@H](CO)O1		>2.71 µM
Nc1nc(=O)n([C@H]2CS[C@@H](CO)S2)cc1F		>100 µg/mL
CC(C)=CCN1Cc2c(C)ccc3[nH]c(=S)n(c23)C[C@@H]1C		22 µg/mL
Cc1cn([C@@H]2O[C@H](CO[Si](c3ccccc3)(c3ccccc3)C(C)(C)C)C3(OS(=O)(=O)C=C3N)[C@H]2O[Si](C)(C)C(C)(C)C)c(=O)n(C)c1=O		45 µM
Cc1ccnc2c1NC(=O)c1cccnc1N2C1CC1	MTT	676 µM
Cc1cc(C)cc(S(=O)(=O)c2c(C(=O)NCc3ccccc3)[nH]c3ccc(Br)cc23)c1		>1 µM
C[C@@H]1[C@@H]2O[C@]3(NC(=O)OC(C)(C)C)[C@@H](C)[C@H]1O[C@H]2[C@@H]3Br	MTT	>72 µM
CCc1c(CCC2CCCCC2)nc(SCC(=O)c2ccc(O)cc2)[nH]c1=O	MTT	132 µM
Cc1cn([C@@H]2O[C@H](CO[Si](C)(C)C(C)(C)C(C)C)C3(OS(=O)(=O)C=C3N)[C@H]2O[Si](C)(C)C(C)(C)C)c(=O)n(C)c1=O		29 µM
CCCCCCCCCCCC(=O)O[C@@]12[C@H](OC(=O)C(C)CC)[C@@H](C)[C@@]3(O)[C@@H](C=C(CO)C[C@]4(O)C(=O)C(C)=C[C@@H]34)[C@@H]1C2(C)C		>62.5 µg/mL
Cc1ccc(S(=O)(=O)OC[C@H]2O[C@@H](n3cc(C)c(=O)n(C)c3=O)[C@H](O[Si](C)(C)C(C)(C)C)C23OS(=O)(=O)C=C3N)cc1		42 µM
COc1ccc(CCNc2nc(NC(=S)Nc3ccccc3Cl)nc(Oc3cc(=O)oc4ccccc34)n2)cc1OC	MTT	13.75 µg/mL
Cc1cn([C@@H]2O[C@H](CO[Si](C)(C)C(C)(C)C)[C@@]3(OS(=O)(=O)C=C3N)[C@H]2O[Si](C)(C)C(C)(C)C)c(=O)nc1N(C)C		62 µM
C/C=C(\C)C(=O)O[C@@]12[C@H](O)[C@@H](C)[C@@]3(O)[C@@H](C=C(COC(=O)CCCCCCC/C=C\C/C=C\CCCCC)C[C@]4(O)C(=O)C(C)=C[C@@H]34)[C@@H]1C2(C)C		>62.5 µg/mL
Cc1cn([C@@H]2O[C@H](CO[Si](C)(C)C(C)(C)C)C3(OS(=O)(=O)C=C3N)[C@H]2O[Si](C)(C)C(C)(C)C)c(=O)n(C)c1=O	MTT	>66.2 µM
CC1(C)CCc2c(cc(O)c3c2OC(c2ccc(O)c(O)c2)CC3=O)O1		>10 µg/mL
C[C@@H]1[C@H](O)[C@H](C)[C@@]2(NC(=O)OC(C)(C)C)O[C@@H]1[C@@H]1O[C@@H]12	MTT	>440 µM
Nc1nc(=O)n([C@@H]2CS[C@@H](CO)S2)cc1F		>100 µg/mL
CCc1c(Cc2cccc(Br)c2)nc(SCc2ccc([N+](=O)[O-])cc2)[nH]c1=O		>187 µM
CC(=O)O[C@@]12[C@H](O)[C@@H](C)[C@@]3(O)[C@@H](C=C(CO)C[C@]4(O)C(=O)C(C)=C[C@@H]34)[C@@H]1C2(C)C		>1000 µg/mL
CC(C)(C)NC(=O)[C@@H]1CN(Cc2cccnc2)CCN1C[C@H](C[C@@H](Cc1ccccc1)C(=O)N[C@H]1c2ccccc2C[C@H]1OC(=O)CCCCO[C@H]1O[C@H](CO)[C@@H](O)[C@H](O)[C@@H]1O)OC(=O)CCCCO[C@H]1O[C@H](CO)[C@@H](O)[C@H](O)[C@@H]1O	MTT	>50 µM
COc1ccc(CSc2nc(Cc3ccc(-c4ccccc4)cc3)c(C)c(=O)[nH]2)cc1		>100 µM

For reference, 11 entries again:

smiles,method,result
CC(C)(C)NC(=O)[C@@H]1CN(Cc2cccnc2)CCN1C[C@@H](O)C[C@@H](Cc1ccccc1)C(=O)N[C@H]1c2ccccc2C[C@H]1O,MTT,>1000 µM
COc1ccc(C(=O)CSc2nc(C(C)C3CCCCC3)c(C)c(=O)[nH]2)cc1,MTT,28 µM
Nc1nc(=O)n([C@H]2CS[C@@H](CO)S2)cc1F,,>100 µg/mL
CCOCn1c(SC)nc(CC)c1Cc1ccccc1,MTT,34 µM
CCc1c(C(C)CC2CCCCC2)nc(SCC(=O)c2ccc(OC)cc2)[nH]c1=O,MTT,31 µM
CCCCCCCCCCCC(=O)O[C@@]12[C@H](OC(=O)C(C)CC)[C@@H](C)[C@@]3(O)[C@@H](C=C(CO)C[C@]4(O)C(=O)C(C)=C[C@@H]34)[C@@H]1C2(C)C,,>62.5 µg/mL
COc1ccc(CSc2nc(Cc3ccc(-c4ccccc4)cc3)c(C)c(=O)[nH]2)cc1,,>100 µM
CCc1c(Cc2cccc(Br)c2)nc(SCc2ccc([N+](=O)[O-])cc2)[nH]c1=O,,>187 µM
CC(C)c1s/c(=N\S(=O)(=O)c2cc(Cl)ccc2C#N)n(C)c1Cl,MTT,3.8 µM
CC(C)=CCN1Cc2c(C)ccc3[nH]c(=S)n(c23)C[C@@H]1C,,22 µg/mL
Cc1c(C(C)(C)C)s/c(=N\S(=O)(=O)c2cc(Cl)ccc2NS(C)(=O)=O)n1C,MTT,>25 µM

CCn is the concentration with n% toxicity to the cells. Rows are shuffled and stem from different studies.